Test results taken from ChEMBL document CHEMBL4145559 (ACS Med Chem Lett, 2018).
In brackets after ≈: the same amount, converted by molar mass.

Test system: Yersinia pestis
Assay: Antimicrobial activity against Yersinia pestis KIM6+
Assay type: functional

`C[C@@H](O)[C@H]1C(=O)N2C(C(=O)O)=C(S[C@@H]3CC[S+]([O-])C3)S[C@H]12` (stereo partly specified) gave an MIC of 32 µg/mL (≈ 91.6 µM).
